The text below walks through data of publication PMC3278406 (PLoS ONE, 2012).

This test concerns the target Stx2 toxoid (Escherichia phage 933W, UniProt P09386). The format is binding, Escherichia coli O157:H7. The following applies: read-out: apparent Kd of Stx2.

On to “Globotriaosyl ceramide, Ceramide trihexoside [Gb3]”, for which the Kd turned out to be 6.4 nM.
